Broadly, the Kd is the free concentration of one partner at which half of the binding sites on the other are occupied at equilibrium, for simple one-to-one binding. A lower Kd goes with a tighter complex.

The target of this assay is CH505TF gp120 Δ7 Monomer. Nature of the assay: SPR.
For the substance 2G12 (-CHO), the Kd came out at 656 nM.

Turning to 19b (V3), the Kd worked out at 9.7 nM.

As to 697 D (V2), the Kd is 564 nM.

In turn, A32 (C1) had a Kd of 0.1 nM.

Consider CH01 (V1-V2), for which the Kd is over 100000 nM.

In turn, CH58 (V2) had a Kd of 278 nM.

CH103_UCA (CD4 bs) came in with a Kd of 179 nM.

In turn, CH106 (CD4 bs) returned a dissociation constant (Kd) of 6.5 nM.

F105 (CD4 bs) gave a Kd of 448 nM.

PG9 (V1-V2) showed a Kd of 926 nM. This Kd is about 2.1-fold higher than that of the substance before.

Substance PGT128 (-CHO) gave a Kd of 154 nM.

For the substance VRC01 (CD4 bs), the Kd was 8.4 nM.

The record behind these values is US20170281749A1.
